What was measured:
[1] = Inhibition of HIV1 RES056 reverse transcriptase K103N/Y181C double mutant infected in human MT4 cells assessed as protection against virus-induced cytopathic effect measured at 5 days post infection by MTT assay
[2] = Inhibition of HIV-1 reverse transcriptase E138K mutant infected in human MT4 cells assessed as protection against virus-induced cytopathic effect measured at 5 days post infection by MTT assay

## Cc1cc(C#N)cc(C)c1Oc1nc(Nc2ccc(C#N)cc2)nc(N)c1Br
[1]
  EC50: 46 nM
[2]
  EC50: 17 nM

From BindingDB's records for doi:10.1016/j.bmc.2017.03.009 (Wuhan Institute of Technology, 2017)
